Assay results as given in PubChem BioAssay AID2315 (National Center for Advancing Translational Sciences (NCATS), 2010).
Only a part is listed here, and it is no random draw. Some salts or complexes appear as unconnected parts, following the source record. Active and inactive are the calls of the source. No stated cut-off is given here; in the data, active means inhibition mostly above about 28% (no sharp cut-off); inactive means mostly below about 43%.

Experiment: A qHTS for Small Molecule Inhibitors of Shiga Toxin; further: 0% is about no effect
Conditions: Vero cells, Shiga toxin protein synthesis inhibition reporter; at 38.7 µM, hits give high values

| SMILES | inhibition |
| --- | --- |
| COc1ccc(CN(CCCl)CCCl)cc1Cl | inactive: -2.76% |
| COc1cc(OC)c(C(=O)NCC2(N(C)C)CCCCC2)cc1OC | inactive: -7.95% |
| O=C(OC1CN2CCC1CC2)c1ccc([N+](=O)[O-])cc1 (configuration not stated) | inactive: 24.7% |
| COc1ccc2c(c1O)-c1c(O)c(OC)cc3c1[C@H](C2)[N+](C)(C)CC3.O=[N+]([O-])c1cc([N+](=O)[O-])c([O-])c([N+](=O)[O-])c1[O-] | inactive: -5.68% |
| CCCOc1ccc(C(=O)NCC2(N(C)C)CCCCC2)cc1OC | inactive: -11.2% |
| O=C(NCC1(N2CCCCC2)CCCCC1)c1ccc(OC(F)F)cc1 | inactive: -6.12% |
| N#CC1(Nc2ccccc2)CCN(CCc2ccccc2)CC1 | inactive: -3.53% |
| CCN1CCC(Nc2ccc(Cl)cc2)CC1 | inactive: -4.97% |
| O=C(NCC1(N2CCCCC2)CCCCC1)c1cccc([N+](=O)[O-])c1 | inactive: -10.4% |
| O=[N+]([O-])c1cc([N+](=O)[O-])c(NCC2CCS(=O)(=O)C2)c([N+](=O)[O-])c1 (configuration not stated) | inactive: -20.9% |
| O=C(NCC1(N2CCCCC2)CCCCC1)c1cccc(C(F)(F)F)c1 | inactive: 10.2% |
| O=C(NCC1(N2CCOCC2)CCCCC1)c1cc(=O)[nH]c2ccccc12 | inactive: 1.44% |
| COc1cc(C(=O)NCC2(N3CCCCC3)CCCCC2)ccc1OC(F)F | inactive: -2.34% |
| COc1ccc(NC2CCN(C(=O)OC(C)(C)C)CC2)cc1 | inactive: 32.4% |
| CN1CCN(CCOC(=O)C(O)(c2ccccc2)c2ccccc2)CC1 | inactive: -3.95% |
| CCOc1ccc(C)cc1CN(CCCl)CCCl | inactive: 10.4% |

| SMILES | inhibition |
| --- | --- |
| CCOC(=O)N1CCC(Nc2ccc(F)cc2)CC1 | inactive: -3.48% |
| COc1ccc(NC2CCN(CCc3ccccc3)CC2)c(OC)c1 | inactive: -13% |
| O=C(NCC1(N2CCCCC2)CCCCC1)c1ccc(F)cc1 | inactive: -10.8% |
| Cc1ccc(OCC(C)C)c(CN(CCCl)CCCl)c1 | inactive: 10.8% |
| COc1cc(C(=O)NCC2(N(C)C)CCCCC2)ccc1OC(F)F | inactive: -3.27% |
| CCOC(=O)N1CCC(Nc2cccc(C)c2)CC1 | inactive: 0.361% |
| COc1ccc(C(=O)NCC2(N3CCCCC3)CCCCC2)c(OC)c1OC | inactive: 19.6% |
| CC(C)(C)OC(=O)N1CCC(N(C(=O)c2ccccc2)c2ccc(F)cc2)CC1 | inactive: -4.37% |
| COc1ccc(C(=O)NCC2(N3CCCCC3)CCCCC2)cc1 | inactive: 0.847% |
| O=C(NCC1(N2CCCCC2)CCCCC1)c1ccc(=O)[nH]c1 | inactive: 7.1% |
| CSc1ccccc1C(=O)NCC1(N2CCCCC2)CCCCC1 | inactive: -7.75% |
| Cc1cc(C)cc(N(C(=O)c2ccccc2)C2CCN(C(=O)OC(C)(C)C)CC2)c1 | inactive: -14.6% |
| O=C(NCC1(N2CCOCC2)CCCCC1)c1cc2ccccc2o1 | inactive: -20.9% |
| O=C(OC1CN2CCC1CC2)C1c2ccccc2Oc2ccccc21 (configuration not stated) | inactive: -10.7% |
| N#CC1(Nc2ccccc2)CCN(Cc2ccccc2)CC1 | inactive: -10.5% |
| CCOC(=O)N1CCC(Nc2ccc(OC)cc2)CC1 | inactive: -9.31% |
